Laboratory results: PubChem BioAssay AID624099 (ICCB-Longwood, 2012)
The whole screen tested about 21,000 reagents; below is an unselected part. Of all reagents, 497 (2.4%) got an active call. 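Higher z means weaker E2 silencing; only reporter increases were scored, and knock-downs that hurt cell survival may mask genuine repressor factors.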 The numbers tell different reagents against one gene apart. No sequences are given here.

Aim: 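Human genes that papillomavirus E2 requires to repress the HPV18 LCR promoter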 (primary screen)
System: human C33A cervical carcinoma cells (HPV-negative) stably expressing BPV1 E2 and an HPV18 LCR luciferase reporter
Knock-down reagent: siRNA pool against human genes, 40 nM
Duration: 72 h
Measured: 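HPV18 LCR reporter light per well, converted to plate-wise z-scores that exclude control wells, and averaged over triplicate plates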
Direction: mean z-score and z-score: higher = stronger reporter signal, weaker E2 silencing
Active means: 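Mean z ≥ 2 together with z ≥ 2 in two or more of the three replicates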

gene knocked down,reagent no.,mean z-score,"z-score, replicate A","z-score, replicate B","z-score, replicate C",Outcome
PTPN5 (GeneID 84867),1,0.28,0.32,0.15,0.38,inactive
STX1A (GeneID 6804),1,-1.34,-1.19,-1.38,-1.45,inactive
MICAL1 (GeneID 64780),1,-1.05,-0.92,-1.37,-0.85,inactive
LINC02210 (GeneID 147081),1,-1.42,-1.46,-1.17,-1.63,inactive
LINC02210 (GeneID 147081),2,0.02,-0.12,0.13,0.07,inactive
LINC02210 (GeneID 147081),3,1.08,1.01,0.68,1.54,inactive
PRKN (GeneID 5071),1,0.44,0.51,0.36,0.46,inactive
RBMXL3 (GeneID 139804),1,1.25,0.73,1.43,1.58,inactive
NQO1 (GeneID 1728),1,0.6,0.3,0.6,0.91,inactive
PLAAT5 (GeneID 117245),1,-0.48,-0.58,-0.37,-0.5,inactive
TMEM101 (GeneID 84336),1,1.15,1.3,0.99,1.16,inactive
CRYAA (GeneID 1409),1,-1.19,-1.12,-1.11,-1.33,inactive
LOC389534 (retired record) (GeneID 389534),1,-0.47,-0.26,-0.71,-0.42,inactive
KIAA0492 (retired record) (GeneID 57238),1,-0.07,0,0.03,-0.24,inactive
ARRDC3 (GeneID 57561),1,2.44,2.21,2.73,2.39,active
EPO (GeneID 2056),1,-0.25,-0.24,-0.23,-0.27,inactive
TNF (GeneID 7124),1,0.2,-0.1,0.3,0.39,inactive
PDHA2 (GeneID 5161),1,0.35,0.07,0.48,0.5,inactive
RBM20 (GeneID 282996),1,0.44,1.4,-0.02,-0.07,inactive
ZNF398 (GeneID 57541),1,-0.91,-1.27,-0.64,-0.83,inactive
LOC128208 (retired record) (GeneID 128208),1,-1.8,-1.24,-2.04,-2.12,inactive
PRR15L (GeneID 79170),1,1.12,1.51,1,0.85,inactive
SPIN3 (GeneID 169981),1,-0.05,-0.47,0.05,0.28,inactive

Targets listed so far whose target name begins with L or l (5):
gene knocked down,reagent no.,mean z-score,"z-score, replicate A","z-score, replicate B","z-score, replicate C",Outcome
LINC02210 (GeneID 147081),1,-1.42,-1.46,-1.17,-1.63,inactive
LINC02210 (GeneID 147081),2,0.02,-0.12,0.13,0.07,inactive
LINC02210 (GeneID 147081),3,1.08,1.01,0.68,1.54,inactive
LOC389534 (retired record) (GeneID 389534),1,-0.47,-0.26,-0.71,-0.42,inactive
LOC128208 (retired record) (GeneID 128208),1,-1.8,-1.24,-2.04,-2.12,inactive
